DMS reactivity of the HIV-1 5' RNA in monomer and dimer

Data from the supplement of Ye et al. 2022, doi:10.1038/s41594-022-00746-2.

Sequence of the HIV-1 NL4-3 5' RNA, positions 1 to 437, as numbered in the source:
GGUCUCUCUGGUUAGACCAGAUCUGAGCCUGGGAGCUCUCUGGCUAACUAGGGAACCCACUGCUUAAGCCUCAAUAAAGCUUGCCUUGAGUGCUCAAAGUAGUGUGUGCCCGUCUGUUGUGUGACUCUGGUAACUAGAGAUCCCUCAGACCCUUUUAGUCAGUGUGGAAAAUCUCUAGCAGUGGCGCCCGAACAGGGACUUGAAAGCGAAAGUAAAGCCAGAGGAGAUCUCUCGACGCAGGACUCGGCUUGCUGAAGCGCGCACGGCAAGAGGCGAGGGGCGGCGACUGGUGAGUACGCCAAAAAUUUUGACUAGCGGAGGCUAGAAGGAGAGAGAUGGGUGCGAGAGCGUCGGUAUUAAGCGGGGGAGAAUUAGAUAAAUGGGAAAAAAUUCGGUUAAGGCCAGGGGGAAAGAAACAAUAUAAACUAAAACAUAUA

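Randomly mutated transcripts starting with one, two or three G (1G, 2G, 3G), capped or uncapped, were folded for 30 min at 37 °C. High salt was 300 mM KCl and 5 mM MgCl2, low salt 40 mM KCl and 0.1 mM MgCl2; monomer and dimer were parted on a native gel. Each band was probed in the gel with DMS (170 mM, 15 min, 37 °C), with ethanol as control, and sequenced.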

Scale: normalised reactivity, A and C only; low values point to paired or protected bases, higher values to unpaired ones.
Sample: 3G capped high-salt dimer.
One numbering serves 1G, 2G and 3G.
A position is written with its base.

| position | 3G capped high-salt dimer |
|---|---|
| A21 | 0.56 |
| A26 | 0.08 |
| C29 | 0.07 |
| C36 | 0.03 |
| C38 | 0.03 |
| C44 | 0.03 |
| A46 | 0.03 |
| A47 | 0.11 |
| C48 | 0.03 |
| A54 | 0.12 |
| C57 | 0.03 |
| C58 | 0.03 |
| A59 | 0.68 |
| C60 | 0.60 |
| A66 | 0.82 |
| A67 | 0.68 |
| C69 | 0.11 |
| C70 | 0.08 |
| C72 | 0.13 |
| A73 | 0.04 |
| A77 | 0.74 |
| A78 | 0.77 |
| C80 | 0.25 |
| C84 | 0.39 |
| A89 | 0.65 |
| C93 | 0.09 |
| A101 | 0.28 |
| C109 | 0.09 |
| C110 | 0.08 |
| C111 | 0.14 |
| A124 | 1.08 |
| A132 | 0.48 |
| A133 | 1.32 |
| C134 | 0.16 |
| A136 | 0.10 |
| C143 | 0.03 |
| C144 | 0.03 |
| C146 | 0.11 |
| A149 | 0.06 |
| C151 | 0.68 |
| C173 | 0.03 |
| C175 | 0.03 |
| A177 | 0.26 |
| C185 | 0.51 |
| C187 | 0.03 |
| C188 | 0.05 |
| A192 | 0.79 |
| C193 | 0.90 |
| A194 | 0.97 |
| A203 | 0.47 |
| A204 | 0.69 |
| A205 | 0.35 |
| C207 | 0.48 |
| A209 | 0.38 |
| A210 | 0.44 |
| A211 | 0.48 |
| A214 | 0.27 |
| A216 | 0.76 |
| C218 | 0.05 |
| C219 | 0.05 |
| A222 | 0.25 |
| A225 | 0.82 |
| A227 | 0.24 |
| C231 | 0.14 |
| C233 | 0.18 |
| A235 | 0.69 |
| C236 | 0.42 |
| A239 | 0.70 |
| A242 | 1.12 |
| C245 | 0.07 |
| C248 | 0.03 |
| C252 | 0.05 |
| A256 | 1.01 |
| C258 | 0.21 |
| C262 | 0.21 |
| A263 | 0.83 |
| C264 | 0.20 |
| C267 | 0.04 |
| A268 | 0.14 |
| A269 | 0.21 |
| C274 | 0.25 |
| A276 | 0.36 |
| C281 | 0.40 |
| C284 | 0.16 |
| C287 | 0.46 |
| C299 | 0.09 |
| A301 | 0.27 |
| A302 | 1.18 |
| A311 | 1.24 |
| C312 | 0.08 |
| A319 | 0.87 |
| C322 | 0.03 |
| A327 | 1.05 |
| A330 | 0.80 |
| A334 | 0.36 |
| A345 | 1.27 |
| A360 | 0.57 |
| A371 | 0.94 |
| A376 | 0.75 |
| A378 | 0.21 |
| A379 | 0.60 |
| A380 | 0.82 |
| A385 | 0.53 |
| A387 | 0.23 |
| A390 | 0.92 |
| C393 | 0.64 |
| A398 | 0.17 |
| C402 | 0.03 |
| C403 | 0.03 |
| A410 | 0.42 |
| A412 | 0.51 |
| A414 | 0.49 |
| A415 | 0.25 |
| C417 | 0.87 |
| A418 | 0.65 |
| A419 | 0.47 |
| A421 | 0.36 |
| A424 | 0.33 |
| A428 | 0.10 |
| A429 | 0.73 |
| A431 | 0.58 |
| C432 | 0.89 |
| A433 | 0.72 |
| A435 | 0.48 |

7 of these entries, quoted again:

position,3G capped high-salt dimer
A256,1.01
C187,0.03
C134,0.16
C175,0.03
A78,0.77
A214,0.27
C44,0.03